Target: Ler (LEE-encoded regulator), residues 3-116 (not stated (enterohemorrhagic or enteropathogenic Escherichia coli))
Assay: […] (10 mM Tris, 100 mM NaCl, 7 mM MgCl2 pH 7.5), […] (2 ng/ul), […]

Ler (LEE-encoded regulator), residues 3-116 (domain or fragment)
stoichiometry N (ratio to the Ler monomer (14.3 kDa)): 4.7

Reference: publication PMC3488262
